These results are taken from PMC12043106, “Insight into antistaphylococcal effect of chlorinated 1-hydroxynaphthalene-2-carboxanilides” (ADMET & DMPK, 2025).

SMILES strings stand for the structures. “Also recorded” adds a separate entry of the source.

The subject of one data set is MRSA SA 630 isolate. The data set can be described thus: Chemoproteomic analysis (comparative ABPP, LC-MS/MS). The note with it: MRSA SA 630 vs untreated control, heatmap. Format: cell-based, methicillin-resistant S. aureus.
Data set [1] concerns Staphylococcus aureus ATCC 29213. Described as above. Format: cell-based. The note with it: S. aureus ATCC 29213 vs untreated control, heatmap.

Take `O=C(Nc1ccc(Cl)c(Cl)c1)c1ccc2ccccc2c1O` [Compound 9]: the “Downregulated proteins after treatment” value in the data set on MRSA SA 630 isolate is “Uncharacterized oxidoreductase SAUSA300_2422 (Q2FE2); also recorded: Large ribosomal subunit protein uL2 (A5IV31), Uncharacterized lipoprotein SAS2259 (Q6G6V2), Dihydroneopterin aldolase (Q5HRN9), and aminoacyltransferase FemB (Q5HPG5)”; in data set [1], “Arsenate reductase (P0A005)”.
Consider `O=C(Nc1cc(Cl)cc(Cl)c1)c1ccc2ccccc2c1O` [Compound 10, N-(3,5-dichlorophenyl)-1-hydroxynaphthalene-2-carboxamide], for which the “Downregulated proteins after treatment” value with MRSA SA 630 isolate was “Uncharacterized oxidoreductase SAUSA300_2422 (Q2FE2)”; in data set [1], “Probable tautomerase SAV1363 (P67526), ribonuclease J2 (Q5HPR6), ATP-dependent protease ATPase subunit HslU (Q5HPT8), adenylosuccinate synthetase (P65884); also recorded: Arsenate reductase (P0A005)”.
